From PMC11661117 (bioRxiv, 2025)

System: HSV-1 strain K26 (GFP-expressing)
Experiment: Comparison of pooled IC50 values in 2D
Type: cell-based
Details: for difference in average potency between models (2D versus 3D): cell types and 2D:3D growth environment combined; for difference in potency for all models: discussion

## Cc1cccc(C)c1N(CC(=O)Nc1ccc(-c2ncon2)cc1)C(=O)C1CCS(=O)(=O)CC1 [Amenamevir]
  difference in average potency between models (2D versus 3D): < 3 fold
  difference in potency for all models: < 2 fold

## Nc1ccn([C@@H]2O[C@H](CO)[C@@H](O)C2(F)F)c(=O)n1 [Gemcitabine]
  difference in average potency between models (2D versus 3D): < 3 fold
  difference in potency for all models: < 2 fold

## CC(=O)O[C@H]1C[C@H](O[C@H]2[C@@H](O)C[C@H](O[C@H]3[C@@H](O)C[C@H](O[C@H]4CC[C@@]5(C)[C@H](CC[C@@H]6[C@@H]5C[C@@H](O)[C@]5(C)[C@@H](C7=CC(=O)OC7)CC[C@]65O)C4)O[C@@H]3C)O[C@@H]2C)O[C@H](C)[C@H]1O[C@@H]1O[C@H](CO)[C@@H](O)[C@H](O)[C@H]1O [Lanatoside C]
  difference in average potency between models (2D versus 3D): < 3 fold
  difference in potency for all models: < 2 fold

## Cc1nc(N(C)C(=O)Cc2ccc(-c3ccccn3)cc2)sc1S(N)(=O)=O [Pritelivir]
  difference in average potency between models (2D versus 3D): < 3 fold
  difference in potency for all models: < 2 fold

## CC1(C)CC(=O)c2c(C(F)(F)F)nn(-c3ccc(C(N)=O)c(N[C@H]4CC[C@H](O)CC4)c3)c2C1 [SNX-2112]
  difference in average potency between models (2D versus 3D): < 3 fold
  difference in potency for all models: < 2 fold

## Fluoroemetine
  difference in average potency between models (2D versus 3D): < 3 fold

No dose or concentration is given here for some results.
